Data as given in patent US20250283886A1.
“And” between values parts separate entries of the source, which are not always exact repeats. Equal values may be shown once. Read-outs that look alike come from different tables or passages of the source.

How the values were obtained:
[1] = molecular target: peptide having an N-terminal tryptophan residue
[2] = molecular target: peptide having an N-terminal phenylalanine residue
[3] = molecular target: peptide having an N-terminal tyrosine residue
[4] = molecular target: peptide having an N-terminal phenylalanine residue; remark: listed apart in the source
[5] = molecular target: peptide having an N-terminal tryptophan residue; remark: listed apart in the source
[6] = molecular target: peptide having an N-terminal phenylalanine residue; remark: listed apart in the source
[7] = molecular target: peptide having an N-terminal tyrosine residue; remark: listed apart in the source
[8] = molecular target: QP64: …

In the case of “ClpS2 from A. tumefaciens labeled at an exposed cysteine residue with ATTO 532”, the mean pulse duration (u) [1] was 0.06 s and 0.04 s, the mean pulse duration (u) [2] was 0.15 s and 0.09 s and the mean pulse duration (u) [3] was 0.09 s and 0.06 s. It also gave a mean pulse duration (u) [4] of 0.14 s, a mean inter-pulse duration (u) [5] of 3.94 s and a mean inter-pulse duration (u) [6] of 3 s. It also gave a mean inter-pulse duration (u) [7] of 3.73 s.
Substance GID4 has a median pulse duration (value at the dashed line) [8] of 0.17 s.
